Like-named read-outs stand apart in the source and are kept apart here.
Tested on: SARS (Toronto-2 Strain)
Format: cell-based, SARS coronavirus (SARSCoV)

IFN-beta: Interferon-beta control
cytoprotective effect (in words) (50 International Units (IU)): substantially no cytoprotective effect | cytoprotective effect (in words) (concentration of 50 IU as printed (second mention)): at least some cytoprotective effect

— patent US8652533B2 (priority 2004, dated 2014)
